# Test results: article PMC10686824, “Bacterial cGAS senses a viral RNA to initiate immunity”
# For at least one entry, the source does not settle the construct or the ends of the probe. Protein sequences can lack the tags named with them.
# Tests used:
# His6-MBP-Ssc-CdnE03 = molecular target: T1, His6-MBP-Ssc-CdnE03 (UniProt P0DXA6); assay: pull-down; settings: total RNA of infected cells, bound RNA sequenced; recombinant protein; protein details: His6-MBP
# T1 sequence (looked up, limits assumed): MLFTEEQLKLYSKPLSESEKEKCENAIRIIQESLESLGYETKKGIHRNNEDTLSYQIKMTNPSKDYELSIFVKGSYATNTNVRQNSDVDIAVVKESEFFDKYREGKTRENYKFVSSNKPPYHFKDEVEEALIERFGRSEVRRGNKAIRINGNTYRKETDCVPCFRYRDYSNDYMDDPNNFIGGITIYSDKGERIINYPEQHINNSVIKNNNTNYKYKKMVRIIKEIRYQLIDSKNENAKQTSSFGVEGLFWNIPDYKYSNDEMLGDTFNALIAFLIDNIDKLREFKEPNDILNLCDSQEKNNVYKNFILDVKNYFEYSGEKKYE
# Ssc-CdnE03 = molecular target: T2, Ssc-CdnE03 (UniProt P0DXA6); assay: EMSA; settings: EMSA: 50 mM CAPSO pH 9.4, 50 mM KCl, 5 mM Mg acetate, 1 mM DTT, 4 C 25 min, 2% agarose in 1x TB, pull-down on cobalt resin, recombinant protein
# T2 sequence (looked up, limits assumed): T1 sequence (looked up, limits assumed)
Sequence,binding result (His6-MBP-Ssc-CdnE03),"binding result (Ssc-CdnE03; 1 uM RNA, 0, 1, 10 uM protein)","binding result (Ssc-CdnE03; similar level to cabRNA, small preference for the short form, 1 uM RNA)"
AGAGGAGAACCUCAAGAGGCUUACAGUAAGAAAUAUGACCAUUUAAACGAUGAAGUGGAAAAAGAGGUUACUUACACAAUCACACCAACUUUUGAAGAGCGUCAGAGAUCUAUUGACCACAUACUAAAAGUACAUGGUGCGUAUAUCGAUAAAAAAGAAAUUACUCAGAAGAAUAUUGAGAUUAAUAUUGGUGAGUACGAUGACGAAAGUUAAAUUAAACUUUAACAAACCAUCUAAUGUUUUCAAUAGAAACAUAUUCGAAAUACUAACCAAUUACGAUAACUUCACUGAAGUACAUUACGGUGGAGGUUCGAGCGGUAAGUCUCACGGCGUUAUACAAAAAGUUGUACUUAAAGCAUUGCAAGACUGGAAAUAUCCUAGGCGUAUACUAUGGCUUAGA [cabRNA PhiNM1gamma6],binds,,
"AGAGGAGAACCUCAAGAGGCUUACAGUAAGAAAUAUGACCAUUUAAACGAUGAAGUGGAAAAAGAGGUUACUUACACAAUCACACCAACUUUUGAAGAGCGUCAGAGAUCUAUUGACCACAUACUAAAAGUUCAUGGUGCGUAUAUCGACAAAAAAGAAAUUACUCAGAAGAAUAUUGAGAUUAAUAUUGGUGAGUACGAUGACGAAAGUUAAAUUAAACUUUAACAAACCAUCUAAUGUUUUCAACAGAAACAUAUUCGAAAUACUAACCAAUUACGAUAACUUCACUGAAGUACAUUACGGUGGAGGUUCGAGUGGUAAGUCUCACGGCGUUAUACAAAAAGUUGUACUUAAAGCAUUGCAAGACUGGAAAUAUCCUAGGCGUAUACUAUGGCUUAGA [cabRNA (IVT, sense, folded)]",,binds,
"AGAGGAGAACCUCAAGAGGCUUACAGUAAGAAAUAUGACCAUUUAAACGAUGAAGUGGAAAAAGAGGUUACUUACACAAUCACACCAACUUUUGAAGAGCGUCAGAGAUCUAUUGACCACAUACUAAAAGUUCAUGGUGCGUAUAUCGACAAAAAAGAAAUUACUCAGAAGAAUAUUGAGAUUAAUAUUGGUGAGUACGAUGACGAAAGUUAAAUUAAACUUUAACAAACCAUCUAAUGUUUUCAACAGAAACAUAUUCGAAAUACUAACCAAUUACGAUAACUUCACUGAAGUACAUUACGGUGGAGGUUCGAGUGGUAAGUCUCACGGCGUUAUACAAAAAGUUGUACUUAAAGCAUUGCAAGACUGGAAAUAUCCUAGGCGUAUACUAUGGCUUAGA [cabRNA (from infected cells, 80alpha-vir)]",binds,,
"AUGACUAAAAAGAAAUAUGGAUUAAAAUUAUCAACAGUUCGAAAGUUAGAAGAUGAGUUGUGUGAUUAUCCUAAUUAUCAUAAGCAACUCGAAGAUUUAAGAAGUGAAAUAAUGACACCAUGGAUUCCAACAGAUACAAAUAUAGGCGGGGAGUUUGUACCGUCUAAUACAUCGAAAACAGAAAUGGCAGUAACUAAUUAUCUUUGUAGUAUACGAAGAGGUAAAAUCCUUGAGUUUAAGAGCGCUAUUGAACGUAUAAUCAACACAUCAAGUAGGAAAGAACGCGAAUUCAUUCAAGAGUAUUAUUUUAAUAAAAAGGAAUUAGUGAAAGUUUGUGAUGACAUACACAUUUCUGAUAGAACUGCUCAUAGAAUCAAAAGGAAAAUCAUAUCUAGAUUGGCGGAAGAGUUAGGGGAAGAGUGAAAUUGGCAGUAAAGUGGCAGUUUUUGAUACCUAAAAUGAGAUAUUAUGAUAGUGUAGGAUAUUGACUAUCUUACUGCGUUUCCCUUAUCGCAAUUAGGAAUAAAGGAUCUAUGUGGGUUGGCUGAUUAUAGCCAAUCCUUUUUUAAUUUUAAAAAGCGUAUAGCGCGAGAGUUGGUGGUAAAUGAAAUGAACGAAAAACAAAAGAGAUUCGCAGAUGAAUAUAUAAUGAAUGGAUGUAAUGGUAAAAAAGCAGCAAUUUCAGCAGGUUAUAGUAAGAAAACAGCAGAGUCUUUAGCAAGUCGAUUGUUAAGAAAUGUUAAUGUUUCGGAAUAUAUUAAAGAACGAUUAGAACAGAUACAAGAAGAGCGUUUAAUGAGCAUUACAGAAGCUUUAGCGUUAUCUGCUUUUAUUGCUAGAGGAGAACCUCAAGAGGCUUACAGUAAGAAAUAUGACCAUUUAAACGAUGAAGUGGAAAAAGAGGUUACUUACACAAUCACACCAACUUUUGAAGAGCGUCAGAGAUCUAUUGACCACAUACUAAAAGUUCAUGGUGCGUAUAUCGACAAAAAAGAAAUUACUCAGAAGAAUAUUGAGAUUAAUAUUGGUGAGUACGAUGACGAAAGUUAAAUUAAACUUUAACAAACCAUCUAAUGUUUUCAACAGAAACAUAUUCGAAAUACUAACCAAUUACGAUAACUUCACUGAAGUACAUUACGGUGGAGGUUCGAGUGGUAAGUCUCACGGCGUUAUACAAAAAGUUGUACUUAAAGCAUUGCAAGACUGGAAAUAUCCUAGGCGUAUACUAUGGCUUAGA [escaper (long) cabRNA, terS S74F, 1237 nt]",binds,,binds
